Reference: patent US20040146520A1, “Materials and methods relating to immune suppression” (priority 2001, published 2004)

Tested on: Flu-specific (MP58-66) CTL
Test: CTL apoptosis induced by peptide/MHC multimeric beads
Type: cell-based, human
Details: IL-2 20 U/ml, anti-CD28 1 μg/ml, z-VAD 10 μM; 12 hrs

IL-2: cytokine IL-2
effect of added reagent on multimer-induced CTL death: small increase in CTL death
